A mixed list of measured activities; the numbers were collected in NIAID ChemDB.

All rows: growth or infection tests; agent: Varicella zoster virus; cell line: HEL; read-out: EC50

Conditions beyond the fields shown may differ between rows.

{"smiles": "OC[C@H]1O[C@@H](c2cc(C#CBr)c(F)cc2F)C[C@@H]1O", "strain or isolate": "07/1 (TK-)", "method": "plaque count", "value": ">50 µM"}
{"smiles": "CCCCCCCCCCCc1cc2cn([C@H]3C[C@H](O)[C@@H](CO)O3)c(=O)nc2o1", "strain or isolate": "YS", "method": "plaque count", "value": "0.37 µM"}
{"smiles": "Nc1nc2c(ncn2COC(CO)CO)c(=O)[nH]1", "strain or isolate": "Oka PMEA-resistant", "method": "cytopathic effect", "value": "1.4 µM"}
{"smiles": "CCCCCCCCc1cc2cn([C@H]3C[C@H](O)[C@@H](CO)O3)c(=O)nc2[nH]1", "strain or isolate": "YS", "method": "plaque count", "value": "0.38 µM"}
{"smiles": "OC[C@H]1O[C@@H](c2ccccc2)[C@H](O)[C@@H]1O", "strain or isolate": "OKA", "method": "plaque count", "value": ">50 µg/mL"}
{"smiles": "C[C@H](Cn1nnc2c(N)ncnc21)OCP(=O)(O)O", "strain or isolate": "OKA (TK+)", "method": "cytopathic effect", "value": "8 µg/mL"}
{"smiles": "CO[C@H](CO)[C@@H](O)CCn1cc(C)c(=O)[nH]c1=O", "strain or isolate": "07/1 (TK-)", "method": "cytopathic effect", "value": ">400 µg/mL"}
{"smiles": "CCCCCCCc1cc2cn([C@H]3C[C@H](O)[C@@H](CO)O3)c(=O)nc2o1", "strain or isolate": "OKA", "method": "plaque count", "value": "0.12 µM"}
{"smiles": "CC[C@@H](O)C1=C[C@@H](n2cnc3c(N)ncnc32)[C@H](O)[C@@H]1O", "strain or isolate": "OKA YS", "method": "cytopathic effect", "value": ">50 µg/mL"}
{"smiles": "CCCCc1ccc(-c2cc3cn(C4CC[C@@H](CO)O4)c(=O)nc3o2)cc1", "strain or isolate": "YS (TK+)", "method": "plaque count", "value": "3.3 µM"}
{"smiles": "O=c1c2ncn(COC(CO)CO)c2nc2[nH]c(-c3ccccc3)cn12", "strain or isolate": "OKA", "method": "plaque count", "value": "0.4 µg/mL"}
{"smiles": "Nc1nc2c(ncn2CC[C@H](O)CCO)c(=O)[nH]1", "strain or isolate": "YS/R (TK-)", "method": "cytopathic effect", "value": ">400 µg/mL"}
{"smiles": "OC[C@H]1O[C@@H](c2cc(C#CI)c(F)cc2F)C[C@@H]1O", "strain or isolate": "OKA", "method": "plaque count", "value": ">20 µM"}
{"smiles": "CCCCOC[C@H]1O[C@@H]2CC(C)(C)C[C@@H]2[C@H]1OCCCC", "strain or isolate": "07/1", "method": "plaque count", "value": ">80 µg/mL"}
{"smiles": "C#CCCCCCCc1cc2cn([C@H]3C[C@H](O)[C@@H](CO)O3)c(=O)nc2o1", "strain or isolate": "YS", "method": "plaque count", "value": "37 µM"}
{"smiles": "Nc1nc2c(ncn2CCC(CO)CO)c(=O)[nH]1", "strain or isolate": "07/1 (TK-)", "method": "plaque count", "value": "8 µg/mL"}
{"smiles": "CCCCCCCCCCCCc1cc2cn([C@H]3C[C@H](O)[C@@H](CO)O3)c(=O)nc2[nH]1", "strain or isolate": "YS", "method": "plaque count", "value": "14 µM"}
{"smiles": "Nc1nc2c(ncn2C[C@]2(CO)C[C@H]2CO)c(=O)[nH]1", "strain or isolate": "5 isolates", "method": "plaque count", "value": "0.77 µg/mL"}
{"smiles": "Nc1nc2c(ncn2CCCCO)c(=O)[nH]1", "strain or isolate": "9/84 + PER + ULF + BIR + Y", "method": "cytopathic effect / ELISA", "value": ">100 µM"}
{"smiles": "CO[C@H](CO)[C@@H](O)CCn1ccc(N)nc1=O", "strain or isolate": "OKA", "method": "cytopathic effect", "value": ">400 µg/mL"}
{"smiles": "Cc1c(Br)cc(Br)c2ncc(CSCc3ccc(Cl)c(Cl)c3)n12", "strain or isolate": "YS/R (TK-)", "method": "plaque count", "value": "2.8 µg/mL"}
{"smiles": "C[C@@H](NC(=O)C1(Cc2ccccc2)CCN1C(=O)OCc1ccccc1)C(=O)OC(C)(C)C", "strain or isolate": "07/1 (TK-)", "method": "plaque count", "value": ">16 µM"}
{"smiles": "Cc1c(Br)cc(Br)c2ncc(CSCc3ccc(F)cc3)n12", "strain or isolate": "07/1 (TK-)", "method": "plaque count", "value": ">5 µg/mL"}
{"smiles": "Nc1nc2nn(CCOCP(=O)(O)O)nc2c(=O)[nH]1", "strain or isolate": "YS (TK+)", "method": "cytopathic effect", "value": "40 µg/mL"}
{"smiles": "CCCCCCCCCCCCc1cc2cn([C@H]3C[C@H](O)[C@@H](CO)O3)c(=O)nc2o1", "strain or isolate": "OKA", "method": "plaque count", "value": "0.8 µM"}
{"smiles": "Nc1nc2c(ncn2C[C@]2(CO)C[C@H]2CO)c(=O)[nH]1", "strain or isolate": "Kawaguchi", "method": "plaque count", "value": "0.027 µg/mL"}
{"smiles": "C[C@H](Cn1nc2nc(N)[nH]c(=O)c2n1)OCP(=O)(O)O", "strain or isolate": "OKA (TK+)", "method": "cytopathic effect", "value": ">20 µg/mL"}
{"smiles": "CCCCCCCCCCCc1cc2cn([C@H]3C[C@H](O)[C@@H](CO)O3)c(=O)nc2o1", "strain or isolate": "OKA", "method": "plaque count", "value": "0.4 µM"}
{"smiles": "Nc1ccn(C[C@@H](CO)OCP(=O)(O)O)c(=O)n1", "strain or isolate": "Oka BVDU-resistant", "method": "cytopathic effect", "value": "0.17 µM"}
{"smiles": "CCOc1ccc(-c2cc3cn([C@H]4C[C@H](O)[C@@H](CO)O4)c(=O)nc3o2)cc1", "strain or isolate": "OKA", "method": "plaque count", "value": "0.009 µM"}
{"smiles": "N#CCc1c(N)nc(N)nc1OCCOCP(=O)(O)O", "strain or isolate": "OKA", "method": "cytopathic effect", "value": "140 µM"}
{"smiles": "Nc1nc2c(ncn2CC(CO)CCO)c(=O)[nH]1", "strain or isolate": "9/84-A", "method": "cytopathic effect / ELISA", "value": ">100 µM"}
{"smiles": "C=Cc1cc([C@H]2C[C@H](O)[C@@H](CO)O2)c(F)cc1F", "strain or isolate": "YS", "method": "plaque count", "value": ">200 µM"}
{"smiles": "C#C[C@H](O)C1=C[C@@H](n2cnc3c(N)ncnc32)[C@H](O)[C@@H]1O", "strain or isolate": "OKA YS", "method": "cytopathic effect", "value": ">50 µg/mL"}
{"smiles": "CCCCCCc1cc2cn([C@H]3C[C@H](O)[C@@H](CO)O3)c(=O)nc2[nH]1", "strain or isolate": "OKA", "method": "plaque count", "value": ">50 µM"}
{"smiles": "Nc1nc2c(ncn2C[C@]2(CO)C[C@H]2CO)c(=O)[nH]1", "strain or isolate": "OKA (TK+)", "method": "plaque count", "value": "0.05 µg/mL"}
{"smiles": "COc1ccc(CSCc2cnc3c(Br)cc(Br)c(C)n23)cc1", "strain or isolate": "YS (TK+)", "method": "plaque count", "value": ">20 µg/mL"}
{"smiles": "O=c1nc2oc(-c3ccccc3)cc2cn1C1CC[C@@H](CO)O1", "strain or isolate": "OKA (TK+)", "method": "plaque count", "value": ">200 µM"}
{"smiles": "CCCCCCc1cc2cn([C@H]3C[C@H](O)[C@@H](CO)O3)c(=O)nc2s1", "strain or isolate": "YS", "method": "plaque count", "value": "0.08 µM"}
{"smiles": "N#CCc1c(N)nc(N)n(CCOCP(=O)(O)O)c1=O", "strain or isolate": "07/1 (TK-)", "method": "cytopathic effect", "value": "84 µM"}
{"smiles": "Nc1nc2c(nnn2CCOCP(=O)(O)O)c(=O)[nH]1", "strain or isolate": "OKA (TK+)", "method": "cytopathic effect", "value": "0.4 µg/mL"}
{"smiles": "CCCOc1ccc(-c2cc3cn([C@H]4C[C@H](O)[C@@H](CO)O4)c(=O)nc3o2)cc1", "strain or isolate": "YS", "method": "plaque count", "value": "0.0025 µM"}
{"smiles": "CCCCCCOc1ccc(-c2cc3cn([C@H]4C[C@H](O)[C@@H](CO)O4)c(=O)nc3o2)cc1", "strain or isolate": "OKA", "method": "plaque count", "value": "0.0015 µM"}
{"smiles": "Nc1nc2c(ncn2C[C@@H](CO)CCO)c(=O)[nH]1", "strain or isolate": "9/84-A", "method": "cytopathic effect / ELISA", "value": ">100 µM"}
{"smiles": "Cc1c(Br)cc(Br)c2ncc(CSCc3ccc(Cl)cc3Cl)n12", "strain or isolate": "07/1 (TK-)", "method": "plaque count", "value": "3.1 µg/mL"}
{"smiles": "CCCCCCCCCCCCc1cc2cn([C@H]3C[C@H](O)[C@@H](CO)O3)c(=O)nc2o1", "strain or isolate": "07 (TK-)", "method": "plaque count", "value": ">50 µM"}
{"smiles": "C=CCCCCc1cc2cn([C@H]3C[C@H](O)[C@@H](CO)O3)c(=O)nc2o1", "strain or isolate": "YS", "method": "plaque count", "value": "33 µM"}
{"smiles": "COc1ccc(-c2cc3cn([C@H]4C[C@H](O)[C@@H](CO)O4)c(=O)nc3o2)cc1", "strain or isolate": "YS", "method": "plaque count", "value": "0.045 µM"}
{"smiles": "O=C(O)P(=O)(O)O", "strain or isolate": "Clinical isolate VZV-16", "method": "cytopathic effect", "value": "97.9 µM"}
{"smiles": "O=c1[nH]c(=O)n([C@H]2C[C@H](O)[C@@H](CO)O2)cc1-c1cc(-c2ccc(Cl)cc2)no1", "strain or isolate": "OKA", "method": "plaque count", "value": "9 µg/mL"}
{"smiles": "C[C@@H](NC(=O)C1(Cc2ccccc2)CCN1C(=O)OCc1ccccc1)C(N)=O", "strain or isolate": "OKA (TK+)", "method": "plaque count", "value": ">400 µM"}
{"smiles": "Cc1cn(CC[C@H](O)CCO)c(=O)[nH]c1=O", "strain or isolate": "YS", "method": "cytopathic effect", "value": ">400 µg/mL"}
{"smiles": "CCCCCc1ccc(-c2cc3cn(C4CC[C@@H](CO)O4)c(=O)nc3o2)cc1", "strain or isolate": "YS/R (TK-)", "method": "plaque count", "value": ">20 µM"}
{"smiles": "Nc1nc2c(ncn2CCC(CO)CO)c(=O)[nH]1", "strain or isolate": "Clinical isolate VZV-30", "method": "cytopathic effect", "value": "4.61 µM"}
{"smiles": "NC1=NC2C(C=CN2CC(CO)CCO)C(=O)N1", "strain or isolate": "YS/R (TK-)", "method": "cytopathic effect", "value": "11.7 µg/mL"}
{"smiles": "CCCCCCCCCCCCc1cc2cn([C@H]3C[C@H](O)[C@@H](CO)O3)c(=O)nc2o1", "strain or isolate": "OKA", "method": "plaque count", "value": "0.8 µM"}
{"smiles": "Nc1nc2c(ncn2C[C@H](CO)CCO)c(=O)[nH]1", "strain or isolate": "9/84 + PER + ULF + BIR + Y", "method": "cytopathic effect / ELISA", "value": "18.6 µM"}

For reference, 4 entries again:

smiles | strain or isolate | method | value
Cc1c(Br)cc(Br)c2ncc(CSCc3ccc(F)cc3)n12 | 07/1 (TK-) | plaque count | >5 µg/mL
CCCCc1ccc(-c2cc3cn(C4CC[C@@H](CO)O4)c(=O)nc3o2)cc1 | YS (TK+) | plaque count | 3.3 µM
CCCCCCc1cc2cn([C@H]3C[C@H](O)[C@@H](CO)O3)c(=O)nc2[nH]1 | OKA | plaque count | >50 µM
CCCCCCCCCCCCc1cc2cn([C@H]3C[C@H](O)[C@@H](CO)O3)c(=O)nc2o1 | 07 (TK-) | plaque count | >50 µM

ECn is the concentration giving n% inhibition of infection, replication or growth.